The experiment concerns the target ACE2-hFc (human) (UniProt Q9BYF1). The experiment in a line: SPR, His-tagged candidate captured on anti-His antibody, ACE2-hFc as analyte.

Usually Kd stands for the concentration at which binding is half-saturated.

In turn, “iInCV02R (SARS CoV-2 RBD) (from UniProt P0DTC2 332-532) (ligand; other documents disagree on this pair)” showed a Kd of 0.9 nM.
